This is a selection; strong and weak results do not stand in their true shares.
Tested on: Plasmodium falciparum NF54/iGP1_RE9H ulg8 stage V gametocytes
Experiment: gametocyte viability (luciferase signal relative to DMSO control) (% of DMSO control); higher = less gametocytocidal activity, active = 50 or less
Conditions: exposure time: 72 h
Method in brief: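 NF54/iGP1_RE9Hulg8 stage V gametocytes (day 12; ~2.5% gametocytemia, 3% hematocrit) were incubated with compounds at 10 µM or 1 µM final, in one well each, for 72 h at 37 °C in medium with 0.5% Albumax II. Luminescence after D-luciferin addition was read on an IVIS Lumina II. Viability refers to the mean of plate DMSO vehicle wells.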

COc1ccc(C=C(C#N)C#N)cc1
gametocyte viability (concentration: 1 µM): inactive: 101 | gametocyte viability (concentration: 10 µM): inactive: 107
